Compound potency records, mixed from different reports. Data source: NIAID ChemDB in PubChem.

Common to all: tests in culture; agent: HIV-1; read-out: EC50

Blank or dashed fields: not listed here. ECn is the concentration giving n% inhibition of infection, replication or growth. Neighbouring rows are from separate reports.

compound | strain | mutations | cell line | read by | result
COc1ccc2sc3c(c2c1)SCC(C)/C3=N\OC(C)=O |  |  | OM-10.1 | p24 | 0.2 µM
Cc1ncc(-c2ccc(OCCOc3ccccn3)cn2)c(N2CCC(C)(C)CC2)c1[C@H](OC(C)(C)C)C(=O)O | NL4-3 |  | MT-2 | luminescence | 0.0018 µM
COc1ccc2c(c1)C1=C(CC2)C(=O)NCCN1Cc1ccc(Cl)cc1 |  |  | OM-10.1 | p24 | 0.5 µM
Cc1ncc(-c2ccc(OC[C@@H](C)Oc3ccccc3)nc2)c(N2CCC(C)(C)CC2)c1[C@H](OC(C)(C)C)C(=O)O | NL4-3 |  | MT-2 | luminescence | 0.001 µM
COCCNC(=O)c1c(COC)nc(Nc2ccc(C#N)cc2)nc1Nc1c(C)cc(/C=C(\C)C#N)cc1C | MDR |  | MT4 CMV-EGFP |  | 0.0891 µM
Cc1cc(C#N)cc(C(=O)c2cc(Cl)ccc2OCC(=O)Nc2ccc(OCCCN3CC=CC3)cc2C)c1 | WTRVA |  | HeLa + HELA CD4+ | β-galactosidase | <0.01 µM
CCCc1cc(=O)oc2c3c(c4c(c12)OC(C)(C)CC4)O[C@@H](C)[C@H](C)[C@@H]3O | IIIB |  | CEMx174 + CEM | cytopathic effect / XTT | 0.8 µM
Cc1ncc(-c2ccc(N(C)CCOc3ccccc3)cn2)c(N2CCC(C)(C)CC2)c1[C@H](OC(C)(C)C)C(=O)O | NL4-3 |  | MT-2 | luminescence | 0.0008 µM
COCc1nc(Nc2ccc(C#N)cc2)nc(Nc2c(C)cc(/C=C/C#N)cc2C)c1C(=O)NCCN1CCOCC1 | K103N + Y181C |  | MT4 CMV-EGFP |  | 0.0617 µM
Cc1cc2cn[nH]c2cc1NC(=O)COc1ccc(Cl)cc1C(=O)c1cccc(C#N)c1 | HXB2 | RT-V108I Y181C | HeLa + HELA CD4+ | β-galactosidase | <0.01 µM
COCc1nc(Nc2ccc(C#N)cc2)nc(Nc2c(C)cc(/C=C/C#N)cc2C)c1C(=O)NCC(OC)OC | MDR |  | MT4 CMV-EGFP |  | 0.107 µM
Cc1cc(S(N)(=O)=O)ccc1NC(=O)COc1ccc(Cl)cc1C(=O)c1cc(F)cc(C(F)(F)F)c1 | IIIB | RT-K103N P225H | HELA MAGI | luciferase | 0.0015 µM
Cc1cc(S(N)(=O)=O)ccc1NC(=O)COc1ccc(Cl)cc1C(=O)c1cccc(C#N)n1 | WTRVA |  | HeLa + HELA CD4+ | β-galactosidase | <0.01 µM
O=C(C(=O)N1CCN(C(=O)c2ccccc2)CC1)c1c[nH]c2c(Br)cc(F)cc12 |  |  | HeLa + HELA CD4+/CCR5 | luciferase | <10 µM
CCc1cc(C#N)cc(C(=O)c2cc(Cl)ccc2OCC(=O)Nc2ccc(S(N)(=O)=O)cc2C)c1 | HXB2 | RT-V108I | HeLa + HELA CD4+ | β-galactosidase | <0.01 µM
Cc1ncc(-c2ccc(OC(c3ccc(F)cc3)C3CC3)c(F)c2)c(N2CCC(C)(C)CC2)c1[C@H](OC(C)(C)C)C(=O)O | NL4-3 |  | MT-2 | luminescence | 0.0047 µM
C=C(C)CN1CCn2ccnc2-c2sc3ccc([N+](=O)[O-])cc3c21 |  |  | OM-10.1 | p24 | 3.8 µM
Cc1cccc(Cl)c1OCCOc1ncc(-c2cnc(C)c([C@H](OC(C)(C)C)C(=O)O)c2N2CCC(C)(C)CC2)cc1F | NL4-3 |  | MT-2 | luminescence | 0.0022 µM
CC(=O)c1c(C)nc(-c2ccccc2)nc1NC(=O)c1ccccc1 | 7295-1 |  | HeLa | GFP / fluorescence | 0.08 µM
COC(=O)C1=CN(C(=O)C(=O)c2c[nH]c3c(C(=O)OC)cccc23)CCN1C(=O)c1ccccc1 |  |  | HeLa + HELA CD4+/CCR5 | luciferase | <10 µM
N#CC1=CC2Nc3ccccc3C2N(c2ccc([N+](=O)[O-])cc2)C1=O | D-92UG046 |  | HeLa | GFP / fluorescence | 1 µM
COCc1nc(Nc2ccc(C#N)cc2)nc(Nc2c(C)cc(/C=C/C#N)cc2C)c1C(=O)NCc1ccccn1 | K103N+Y101C |  | MT4 CMV-EGFP |  | 0.0214 µM
Cc1cc(C#N)cc(C(=O)c2cc(Cl)ccc2OCC(=O)Nc2cnc(S(N)(=O)=O)cc2C)c1 | HXB2 | RT-P225H | HeLa + HELA CD4+ | β-galactosidase | <0.01 µM
COCc1nc(Nc2ccc(C#N)cc2)nc(Nc2c(C)cc(/C=C/C#N)cc2C)c1C(=O)NCCc1ccc(S(N)(=O)=O)cc1 | K103N + Y181C |  | MT4 CMV-EGFP |  | 0.0447 µM
O=C1NCCN(Cc2ccccc2F)c2c1sc1ccc([N+](=O)[O-])cc21 |  |  | OM-10.1 | p24 | <0.002 µM
COc1cccc2[nH]cc(C(=O)C(=O)N3CCN(C(=O)c4cccc(N)c4)C[C@H]3C)c12 |  |  | HeLa + HELA CD4+/CCR5 | luciferase | <10 µM
COCc1nc(Nc2ccc(C#N)cc2)nc(Nc2c(C)cc(/C=C/C#N)cc2C)c1C(=O)N(C)OC | K103N+Y101C |  | MT4 CMV-EGFP |  | 0.0759 µM
C[C@@H]1CN(C(=O)c2ccccc2)CCN1C(=O)C(=O)c1c[nH]c2c(F)ccc(F)c12 |  |  | HeLa + HELA CD4+/CCR5 | luciferase | <10 µM
CSc1ccc2sc3c(c2c1)N(Cc1cccc([N+](=O)[O-])c1)CCNC3=O |  |  | OM-10.1 | p24 | <0.08 µM
Cc1ccnc2c1NC(=O)c1cccnc1N2C1CC1 | MJ4 C | N348I | HEK293T | luciferase | 287 nM
Cc1cc(C#N)cc(C(=O)c2cc(Cl)ccc2OCC(=O)Nc2ccc(S(N)(=O)=O)cc2C)c1 | HXB2 | RT-K103N P225H | HeLa + HELA CD4+ | β-galactosidase | <0.01 µM
C[C@H]1CN(C(=O)c2ccccc2)CCN1C(=O)C(=O)c1c[nH]c2cc(Cl)ccc12 |  |  | HeLa + HELA CD4+/CCR5 | luciferase | <10 µM
O=C(O)c1cc(-n2cccc2)ccc1Cl | BCF02 R5 GROUP O |  | PBMC/5.25M7 | luciferase / cell fusion | 46.4 µM
CCC(=O)c1ccc(F)c([C@@H]2C[C@@H]2NC(=O)Nc2ccc(C#N)cn2)c1O | LAI | NNRTI-resistant (RT H221Y) | TZM-bl | β-galactosidase / luminescence | 0.00091 µM
C[C@@H]1CCO[C@H]2Cn3cc(C(=O)NCc4ccc(F)cc4F)c(=O)c(O)c3C(=O)N12 | NL4-3 | E138K/R263K | CBMC | RT activity | 0.0027 µM
Cc1ncc(-c2cc(F)c(F)c(OC3CC(c4ccc(F)cc4)C3)c2)c(N2CCC(C)(C)CC2)c1[C@H](OC(C)(C)C)C(=O)O | NL4-3 |  | MT-2 | luminescence | 0.0215 µM
O=C(C(=O)N1CCN(C(=O)c2ccccc2)CC1CO)c1c[nH]c2cccc(F)c12 |  |  | HeLa + HELA CD4+/CCR5 | luciferase | <10 µM
COc1cc(-c2ccc(N=Nc3ccc4c(S(=O)(=O)O)cc(S(=O)(=O)O)c(N)c4c3O)c(OC)c2)ccc1N=Nc1ccc2c(S(=O)(=O)O)cc(S(=O)(=O)O)c(N)c2c1O | MN |  | CEM + CEM-SS | cytopathic effect / XTT | 8.7 µM
CC1CN(C(=O)c2ccccc2)CCN1C(=O)C(=O)c1c[nH]c2cccc(F)c12 |  |  | HeLa + HELA CD4+/CCR5 | luciferase | <10 µM
COCc1nc(Nc2ccc(C#N)cc2)nc(Nc2c(C)cc(/C=C/C#N)cc2C)c1C(=O)NCC1CCCO1 | L1001+K103N |  | MT4 CMV-EGFP |  | 0.055 µM
COc1cc(Cl)ccc1OCCN(C)c1ccc(-c2cnc(C)c([C@H](OC(C)(C)C)C(=O)O)c2N2CCC(C)(C)CC2)cn1 | NL4-3 |  | MT-2 | luminescence | 0.002 µM
Nc1ccccc1C(=O)N1CCN(C(=O)C(=O)c2c[nH]c3cccc(F)c23)CC1 |  |  | HeLa + HELA CD4+/CCR5 | luciferase | <10 µM
C/C=C/CSc1cc(NC(=S)c2ccsc2C)ccc1Cl | NL4-3 | RT-L74V | CEM + CEM-SS | p24 | 0.07 µM
Cc1cc(S(N)(=O)=O)ccc1NC(=O)COc1ccc(Cl)cc1C(=O)c1cc(F)cc(C(F)(F)F)c1 | HXB2 | RT-K103N V108I | HeLa + HELA CD4+ | β-galactosidase | <0.01 µM

Repeating the first 2 entries:

compound	strain	mutations	cell line	read by	result
COc1ccc2sc3c(c2c1)SCC(C)/C3=N\OC(C)=O			OM-10.1	p24	0.2 µM
Cc1ncc(-c2ccc(OCCOc3ccccn3)cn2)c(N2CCC(C)(C)CC2)c1[C@H](OC(C)(C)C)C(=O)O	NL4-3		MT-2	luminescence	0.0018 µM